Compound potency records, mixed from different reports. Data source: NIAID ChemDB in PubChem.

All rows: tests in culture; species: HIV-1; measure: inhibition

a–b is a range or a potency band.

SMILES | strain | changes | cells | method | conditions | dose | value
C[C@H]1CN(C(=O)c2ccccc2)CCN1C(=O)C(=O)c1c[nH]c2cccc(F)c12 |  |  | HeLa + HELA CD4+/CCR5 | luciferase |  | 10 µM | >98%
CC(=O)N1C(=O)[C@@H](Cc2ccc(Cl)cc2)NC1=S |  |  | MT-4 | cytopathic effect / XTT |  | 10 µg/mL | 3%
CC(C)[C@H](NC(=O)[C@H](CO)NC(=O)[C@@H](N)CS)C(=O)N[C@H](C(=O)N[C@@H](CS)C(=O)NCC(=O)O)[C@@H](C)O | p13 |  | PBMC(PHA STIM.) + PBMC | p24 |  | 0.3 µM | 87%
O=C(NCCc1ccccc1)Nc1nc2ccc(F)cc2s1 |  |  | MT-4 | cytopathic effect / XTT |  | 10 µg/mL | 21–100%
C[C@H]1[C@H](O)[C@@H](C)/C=C/C=C/C=C/C=C/C=C/C=C/C=C/[C@H](O[C@@H]2O[C@H](C)[C@@H](O)[C@H](N)[C@@H]2O)C[C@@H]2O[C@](O)(C[C@@H](O)C[C@@H](O)CC[C@H](O)[C@@H](O)C[C@@H](O)CC(=O)O[C@H]1C)C[C@H](O)[C@H]2C(=O)O | 93BR019 CLADE BF X4 (SI) |  | PBMC | p24 / RT activity |  | 2.4 µM | 90%
COc1cccc2[nH]cc(C(=O)C(=O)N3CCN(C(=O)c4ccccc4)C[C@H]3C)c12 |  |  | HeLa + HELA CD4+/CCR5 | luciferase |  | 10 µM | >98%
CCCCOC(=O)c1ccc(NC(=O)NCCc2ccccc2)cc1 |  |  | MT-4 | cytopathic effect / XTT |  | 10 µg/mL | 0%
CC1(C)[C@@H](O[C@H]2O[C@H](C(=O)O)[C@@H](O)[C@H](O)[C@H]2O[C@@H]2O[C@H](C(=O)O)[C@@H](O)[C@H](O)[C@H]2O)CC[C@]2(C)[C@H]3C(=O)C=C4[C@@H]5C[C@@](C)(C(=O)O)CC[C@]5(C)CC[C@@]4(C)[C@]3(C)CC[C@@H]12 | IIIB |  | MOLT-4 | RT activity | 6 d | 1200 µM | 49.5%
COc1ccc(F)c2c(C(=O)C(=O)N3CCN(C(=O)c4ccccc4)C[C@H]3C)c[nH]c12 |  |  | HeLa + HELA CD4+/CCR5 | luciferase |  | 10 µM | >98%
O=C1NC(=S)N[C@@H]1Cc1ccccc1 |  |  | MT-4 | cytopathic effect / XTT |  | 10 µg/mL | 28%
COC(=O)c1cccc2c(C(=O)C(=O)N3CCN(C(=O)c4ccccc4)CC3C(F)(F)F)c[nH]c12 |  |  | HeLa + HELA CD4+/CCR5 | luciferase |  | 10 µM | >98%
Cc1ccc(-c2ccc3c(c2)C=C(C(=O)Nc2ccc(C[N+](C)(C)C4CCOCC4)cc2)CCC3)cc1 | Du368 CLADE C |  | PBMC | p24 |  | 1 µM | 92%
CC(C)[C@H](NC(=O)[C@H](CO)NC(=O)[C@@H](N)CSSCC(=O)O)C(=O)N[C@H](C(=O)N[C@@H](CSSCC(=O)O)C(=O)NCC(=O)O)[C@@H](C)O | BaL |  | PBMC(PHA STIM.) + PBMC | p24 |  | 1.32 µM | 60%
CCC1CN(C(=O)c2ccccc2)CCN1C(=O)C(=O)c1c[nH]c2c(C(=O)OC)cccc12 |  |  | HeLa + HELA CD4+/CCR5 | luciferase |  | 10 µM | >98%
O=C1[C@@H](Cc2ccccc2)NC(=S)N1c1ccccc1 |  |  | MT-4 | RT activity |  | 100 µg/mL | 98%
C=C(C)[C@@H]1CC[C@]2(C(=O)NCCCCCCCC(=O)N[C@@H](CC(C)C)[C@@H](O)CC(=O)O)CC[C@]3(C)[C@H](CC[C@@H]4[C@@]5(C)CC[C@H](O)C(C)(C)[C@@H]5CC[C@]43C)[C@@H]12 | LAI | GP41-A101S | HeLa P4 + HeLa | syncytia |  | 10 µM | >99%
CC(=O)Oc1cccc(C(=O)N2CCN(C(=O)C(=O)c3c[nH]c4cccc(F)c34)CC2)c1 |  |  | HeLa + HELA CD4+/CCR5 | luciferase |  | 10 µM | >98%
O=C(NCCc1ccccc1)Nc1cncc(Cl)n1 |  |  | MT-4 | cytopathic effect / XTT |  | 100 µg/mL | 38–100%

An empty or dashed field is not shown. Percent inhibition refers to the dose given; in toxicity tests it is the harm to the cells. Neighbouring rows are from separate reports.